Values quoted from earlier work as cited in patent US8784929B2 (priority 2007, dated 2014).

Biological target: αHL-M113F-D8 (Staphylococcus aureus, UniProt P09616, G156S/I168L/K34A/M139F/N165Q/V150L)
Conditions: cited from earlier work

β-cyclodextrin
binding of β-cyclodextrin (in words): binds β-cyclodextrin strongly
mean dwell time (voltage-dependent): approximately 10 seconds
